Data on 12 molecules can be found in the supplement of paper PMC9931576.

Human monoclonal antibodies against the spike receptor-binding domain (heavy:light variable regions). IC50 against pseudoviruses bearing the spike of naturally observed variants; lower = stronger; >10 µg/ml means not reached at the top dose. No active / inactive call. The stated detection limit is 0.0005 µg/ml; values near or below 0.001 µg/ml lie at the floor of the assay.

Holding throughout (experiment): pseudovirus neutralization IC50; higher = weaker neutralization
The target in assay [1] is SARS-CoV-2 Omicron BA.1 spike pseudovirus. As to the method: (§1)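 Single-round VSV luciferase pseudovirus mixed with antibody dilutions for 1 h and put on Huh-7 cells for about a day; IC50 from the dose curve.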
Assay [2] concerns the target SARS-CoV-2 Omicron BA.2 spike pseudovirus. As for the experimental part:
as §1

For assay [3], the target named is SARS-CoV-2 Omicron BA.2.75 spike pseudovirus. As to the method:
as §1

The target of assay [4] is SARS-CoV-2 Omicron BA.5 spike pseudovirus. As to the method:
as §1

Assay [5] concerns the target SARS-CoV-2 Omicron BQ.1.1 spike pseudovirus. As for the experimental part:
as §1

Assay [6] concerns the target SARS-CoV-2 Omicron XBB spike pseudovirus. As to the method: as §1
The target of assay [7] is SARS-CoV-2 early D614G spike pseudovirus. As to the method:
as §1

B1: BD55-6651 (protein)
chain 1: EVQLVESGGGLVQPGGSLRLSCAASGFSFSSFYIHWVRQAPGKGLEYVSAISSDGGNAYYANSVKDRFTISRDNSKNTVYLQLGSLRPEDTAVYFCARDLEYSAWRGSGMGVWGLGTTVTVSS
chain 2: QSVLTQPPSVSGAPGQRVTISCTGSSSNLGAGYGVHWYQQLRGTAPKLLIYGNSNRPSGVPDRFSGSKSGTSASLAITGLQAEDEADYYCQSYDSSLSGHVIFGGGTKVTVL
Consider B1, for which the “pseudovirus neutralization IC50” value in assay [1], in assay [2], in assay [3], in assay [4], in assay [5] and in assay [6] was more than 10 µg/mL in each case. Also, in assay [7], the “pseudovirus neutralization IC50” value came out at 0.0338 µg/mL.

B2: BD55-6677 (protein)
chain 1: QVQLLESGPGLVKPSQTLSLTCTVSGDAVNSDRHYWAWIRQPAGKGLEWVGHIYNTGSANYNPSLNRRATISVAASKTQFSLRLTSVTAADTAIYFCARGNMVVAGPYYHFGMDVWGHGTPVTVSS
chain 2: SYDLTQPPSVSVSPGQTATITCSGDVLPKQYGFWYQLKPGQAPVLVISKDSERPSWIPERFSGSISGSTVTLTISGVQAEDEADYYCQSTDFSGSLLFGGGTKLTVL
Consider B2, for which the “pseudovirus neutralization IC50” value in assay [1] is 0.139 µg/mL; in assay [2], 0.179 µg/mL; in assay [3], 0.35 µg/mL; in assay [4], 0.578 µg/mL; in assay [5] it was more than 10 µg/mL; in assay [6], more than 10 µg/mL. In addition, the “pseudovirus neutralization IC50” value in assay [7] worked out at 0.00607 µg/mL.

B3: BD55-1297 (protein)
chain 1: DVQLVESGGGLVQPGGSLRLSCAASGFTFRNYDMHWVRQISGETLEWVSAIGTSGDTYYADSVKGRFSVSRENAKNSFYLQMNSLTAGDTAMYYCTRGDLSSSSNWYFDLWGRGTLVAVSS
chain 2: DIQMTQSPSSLSASVGDRVTITCRASQSIRNYLNWYQQKPGKAPKLLIYAASSLQSGVPSRFSGSGSGTEFTLTITTLQPEDFATYYCQQNYVMPPITFGQGTRLDMK
B3: the “pseudovirus neutralization IC50” value in assay [1], in assay [2], in assay [3], in assay [4], in assay [5] and in assay [6] was more than 10 µg/mL each time. Further, the “pseudovirus neutralization IC50” value in assay [7] is 1.95 µg/mL.

B4: BD55-1307 (protein)
chain 1: QVQLVQSGAEVKKPGSSVKVSCTASGGTFSSYSINWVRQAPGQGLEWMGRIIPMLGVANYAQKFQGRVTITADKSTSTACMELTSLRSEDTAVYYCAREGPGYGYNSGSTEYFQRWGQGTLVTVSS
chain 2: QSVLTQPPSVSGAPGQRVTISCTGSSSNIGAGYDVHWYQQLPGTAPKLLIYGNSNRPSGVPDRFSGSKSGTSASLAITGLQAEDEADYYCQSYDSSLSDFVFGTGTKVTVL
For B4, the “pseudovirus neutralization IC50” value in assay [1] was 0.0772 µg/mL; in assay [2], 0.101 µg/mL; in assay [3], 0.0909 µg/mL; in assay [4] it was more than 10 µg/mL; in assay [5], more than 10 µg/mL; in assay [6], more than 10 µg/mL. Moreover, the “pseudovirus neutralization IC50” value in assay [7] was determined as 0.109 µg/mL.

B5: BD55-6635 (protein)
chain 1: EERLVQSGAELKKPGESLRISCQASGYRFRNFWITWVRQMPGKGLEWMGRMDPTDSYSKYSPSFQGHVTFSADTSISTAYLQWSSLKASDTATYYCARQLCGGDCPIDFWGPGTLVTVSS
chain 2: DIQMTQSPSSVSASVGDRVTITCRASQDIREYLAWFQQKPGQAPYSLIYTASSLHSGVPLRFSGSGSGTDFTLTISSLQPEDFATYYCQQYATNPPTFGPGTKVEVK
For B5, the “pseudovirus neutralization IC50” value in assay [1], in assay [2], in assay [3], in assay [4], in assay [5] and in assay [6] was more than 10 µg/mL throughout. In assay [7], the “pseudovirus neutralization IC50” value is more than 10 µg/mL.

B6: BD55-6647 (protein)
chain 1: QVQLVQSGAEVKKPGSSVKVSCKASGGTFSSNAISWVRQAPGQGLDWLGRIIPIFGTSSYAQKFQGRVTMTADESTGTAYMELSGLTSEDTAVYYCGRAGVLGGAGSYYIVDYWGQGSLVTVSS
chain 2: NFVLTQPHSVSGSPGKTVTISCTRSSGSIDSDYVQWYQQRPGSAPTTVIFEHSQTPSGVPDRFSGSIDTSSNSASLTVSGLKTEDEADYYCQSYDSGTQAWVFGGGTKLTVL
As to B6, the “pseudovirus neutralization IC50” value in assay [1], in assay [2], in assay [3], in assay [4], in assay [5] and in assay [6] was more than 10 µg/mL each time. The “pseudovirus neutralization IC50” value in assay [7] stood at 0.178 µg/mL.

B7: BD55-6679 (protein)
chain 1: QVQLQESGPGLVKPSQTLSLTCTVSGGSIGRGGYFWSWVRQHPGKGLQWIGHIYFSGNTYNNPSLKSRSTLSLDTSKNQFSLTLTSVTVADTAVYYCARVGFYASGTYYFDYWGQGTLVTVSS
chain 2: SSELTQDPAVSVALGQTVRIACQGASLRTYFASWYQQKPGQAPLLVFYGKNNRPSGIPDRFSGSSSGNTAFLTITGAQAEDEADYYCNSRDSSGNYLVFGGGTKLTVL
In the case of B7, the “pseudovirus neutralization IC50” value in assay [1], in assay [2], in assay [3], in assay [4], in assay [5] and in assay [6] was more than 10 µg/mL each time. Also, the “pseudovirus neutralization IC50” value in assay [7] is more than 10 µg/mL.

B8: BD55-6639 (protein)
chain 1: QLRLQESGPGLVKPSETLSLTCTVSGGSINSRTYYWGWIRQPPGKGLEWIGSIHSGGNTFFNSSLESRLTISVDTSKNQFSLKLTSVTAADTAVYYCAREGLGRVSFSYFGLDVWGQGTTVIVSS
chain 2: DIVMTQSPLSLPVTPGEPASISCRSSQSLLHSNGFNYLDWYLQKPGQSPQLLIYLASNRASGVPDRFSGSGSGTDFTLKISRVEADDVGIYYCMQALKAPTFGQGTRLEIK
For the molecule B8, the “pseudovirus neutralization IC50” value in assay [1], in assay [2], in assay [3], in assay [4], in assay [5] and in assay [6] was more than 10 µg/mL each time. Also, in assay [7], the “pseudovirus neutralization IC50” value was more than 10 µg/mL.

B9: BD55-6671 (protein)
chain 1: QVQLVESGGGVVQPGRSLRVSCVASGFTFRNYGMHWVRQTPGKGLEWVAVISYDGSSKYYADSVKGRFTISRDNSKDTLYLQMSSLRGEDTAVYYCAKVEDALRYFERPGPFDYWGQGTLVTVSS
chain 2: EVVLTQSPDFQSVTPKETVTITCRASQNIGSGLHWYQQKPDQSPKLLIKYTSQSFSGVPSRFSGSGSGTDFTLTIKSLEAEDAATYYCHQSSIGYTFGQGTKLEIK
Regarding B9, the “pseudovirus neutralization IC50” value in assay [1], in assay [2], in assay [3], in assay [4], in assay [5] and in assay [6] was more than 10 µg/mL each time. In assay [7], the “pseudovirus neutralization IC50” value was 0.137 µg/mL.

B10: BD55-6645 (protein)
chain 1: EVQLVESGGGLVQPGGSLRLACSASGFIFSKYPMHWVRQAPGKGLEYVSGISSDGGLPDYADSVKGRFTISRDNSKNTLYLRVSSLRPEDTAVYYCVKDQLARESIMAVLDFWGQGTLVTVSS
chain 2: DIQMTQAPSSLSASVGDRVTITCRASQSIRNYLNWYQHKPGTAPKVLISAASSLQSGVPSRFTGSGSGTDFTLTISSLQPEDFATYYCQQSYTNPLTFGGGTKVEMK
Take B10: the “pseudovirus neutralization IC50” value in assay [1], in assay [2], in assay [3], in assay [4], in assay [5] and in assay [6] was more than 10 µg/mL in each case. Besides, in assay [7], the “pseudovirus neutralization IC50” value is 5.58 µg/mL.

B11: BD55-6657 (protein)
chain 1: QEQLVESGGGVVQPGRSLRLSCSASGFTFNDFGMHWVRQAPGKGLEWVAFISFDGGAKNYADSVKGRFTISRDNSRNALSLQINSVRIEDTAVYYCAKEEGIMGYYYYYMDVWGKGTAVTVSS
chain 2: QTVVTQEPSFSVSPGGTVTLTCGLSSGSVSTYHYPSWYQQTPGQAPRPLIYRTNTRSSGVPDRFSGSILGNKAALTITGAQADDESDYYCALCIGSGIFVFGSGTKVTVL
For B11, the “pseudovirus neutralization IC50” value in assay [1], in assay [2], in assay [3], in assay [4], in assay [5] and in assay [6] was more than 10 µg/mL each time. In assay [7], the “pseudovirus neutralization IC50” value was more than 10 µg/mL.

B12: BD55-6650 (protein)
chain 1: EGQLVESGGGLVKPGRSLRLSCKGSGITFGDYAMSWFRQAPGKGLEWVGFIRGKAYGETTEYAASVRGRFTISRDDSESIAYLQMNSLKAEDTAVYYCSREGTFSYYYYYAMDVWGQGTTVTVSS
chain 2: DIQMTQSPSSLSASVGDRVTITCRASQTISYYVNWYQQKPGKPPKLLIYAASSLQSGVPSRFSGSGSGTDFTLTINSLQPEDFATYYCQQSYSIPITFGQGTPLEIK
Take B12: the “pseudovirus neutralization IC50” value in assay [1], in assay [2], in assay [3], in assay [4], in assay [5] and in assay [6] was more than 10 µg/mL each time. In addition, the “pseudovirus neutralization IC50” value in assay [7] was 5.51 µg/mL.
